Results of unrelated studies side by side (data: NIAID ChemDB).

Shared fields: tests in culture; agent: Mycobacterium kansasii; endpoint: MIC

Neighbouring rows are from separate reports. An empty or dashed field is not shown.

SMILES,strain,method,conditions,value
COc1cc(/C=C/C2=NN(C(=N)N)C(c3cc(OC)c(OC)c(OC)c3)C2)cc(OC)c1OC,,resazurin,,21.25 µM
COC(=O)c1cnccn1,6509/96,,14 d,500 µM
Cc1ccn2c(C(=O)NCc3ccc4c(c3)CCO4)c(C)nc2c1,Clinical isolate 0008,MTT,,32 µg/mL
CC[C@@H](C)[C@H](NC(=O)OCc1ccccc1)c1cnc(-c2ccc([N+](=O)[O-])cc2)[nH]1,My 235/80,,7 d,32 µM
O=C(Oc1cc(Cl)ccc1C(=O)Nc1ccc(Cl)cc1)c1ccccc1,235/80,broth dilution,21 d,4 µM
O=C(Oc1cc(Cl)ccc1C(=O)Nc1ccc(C(F)(F)F)cc1)c1cnccn1,6509/96,,21 d,1 µM
N/C(=N\N=C\c1cc(Cl)ccc1O)SCc1ccc(F)cc1,ATCC 12478,broth dilution,14 d,16 µM
Cc1ccc2nc(C)c(C(=O)NCc3ccc(C(F)(F)F)cc3)n2c1,Clinical isolate SHP,MTT,,0.125 µg/mL
O=C(Oc1cc(Cl)ccc1C(=O)Nc1cccc(Br)c1)c1ccccc1,235/80,broth dilution,21 d,4 µM
Cc1ccc2c(=S)n(-c3ccc(C(C)C)cc3)c(=S)oc2c1,6509/96,broth dilution,21 d,2 µM
O=C(Nc1ccc(Br)cc1)c1cc(Cl)ccc1OS(=O)(=O)c1ccccc1,6509/96,,21 d,16 µM
O=C(Oc1ccc(Cl)cc1C(=O)Nc1ccc(Br)cc1)c1ccccc1,235/80,broth dilution,21 d,4 µM
C[C@@H](NC(=O)OCc1ccccc1)c1cnc(-c2ccccc2)[nH]1,My 235/80,,7 d,125 µM
O=C(Nc1cccc(F)c1)c1ccc(Cl)cc1OS(=O)(=O)c1ccccc1,6509/96,,14 d,32 µM
O=C(Oc1cc(Cl)ccc1C(=O)Nc1ccc(C(F)(F)F)cc1)c1ccccc1,6509/96,broth dilution,14 d,2 µM
N/C(=N\N=C\c1ccccc1)SCc1ccc(C(F)(F)F)cc1,6509/96,broth dilution,21 d,62.5 µM
Fc1cccc(-n2c(=S)oc3ccc(F)cc3c2=S)c1,6509/96,,14 d,16 µM
C[C@H](NC(=O)OCc1ccccc1)c1cnc(-c2ccccc2)[nH]1,My 235/80,,21 d,250 µM
O=C(Oc1ccc(Cl)cc1C(=O)Nc1cccc(F)c1)c1cnccn1,6509/96,,7 d,4 µM
N/C(=N\N=C\c1cc(Cl)ccc1O)SCc1cccc(Cl)c1,ATCC 12478,broth dilution,14 d,32 µM
O=c1oc2ccc(Br)cc2c(=S)n1-c1cccc(F)c1,6509/96,,14 d,8 µM
Cc1ccccc1/C=C/C1=NN(C(=N)N)C(c2ccccc2C)C1,,resazurin,,1.96 µM
N/C(=N\N=C\c1ccccc1O)SCc1ccc(Br)cc1,6509/96,broth dilution,21 d,32 µM
O=C(Nc1ccc(Cl)c(Cl)c1)c1cc(Cl)ccc1O,6509/96,broth dilution,21 d,8 µM
COc1ccccc1/C=C/C1=NN(C(=N)N)C(c2ccccc2OC)C1,,resazurin,,1.78 µM
CC(C)[C@H](NC(=O)OCc1ccccc1)c1cnc(-c2ccc([N+](=O)[O-])cc2)[nH]1,My 6509/96,,7 d,16 µM
COc1ccc(CS/C(N)=N/N=C/c2ccccc2O)cc1,6509/96,broth dilution,21 d,250 µM
COc1ccc2oc(=S)n(-c3ccc(C(F)(F)F)cc3)c(=S)c2c1,My 235/80,,14 d,32 µM
CC(C)C[C@H](NC(=O)OCc1ccccc1)c1cnc(-c2ccccc2)[nH]1,My 235/80,,21 d,>500 µM
O=C(Nc1cccc(C(F)(F)F)c1)c1ccc(Cl)cc1OS(=O)(=O)c1ccccc1,235/80,,21 d,125 µM
O=C(Oc1ccc(Br)cc1C(=O)Nc1ccc(C(F)(F)F)cc1)c1cnccn1,235/80,,21 d,4 µM
CC[C@@H](C)[C@H](NC(=O)OCc1ccccc1)c1cnc(-c2ccccc2)[nH]1,My 6509/96,,7 d,32 µM
O=C(Nc1ccc(Cl)c(Cl)c1)c1cc(Cl)ccc1OS(=O)(=O)c1ccccc1,235/80,,14 d,8 µM
CCC(C)c1ccc(-n2c(=S)oc3ccc(Br)cc3c2=S)cc1,6509/96,broth dilution,14 d,4 µM
COc1cccc(CS/C(N)=N/N=C/c2cc(Cl)ccc2O)c1,ATCC 12478,broth dilution,14 d,32 µM
O=C(Oc1cc(Cl)ccc1C(=O)Nc1ccc(Br)cc1)c1ccccc1,6509/96,broth dilution,21 d,4 µM
O=C(Oc1ccc(Cl)cc1C(=O)Nc1ccc(C(F)(F)F)cc1)c1cnccn1,235/80,,7 d,2 µM
Cc1ccc2oc(=O)n(-c3ccc(Br)cc3)c(=S)c2c1,6509/96,,14 d,4 µM
O=C(Oc1ccc(Cl)cc1C(=O)Nc1cccc(Cl)c1)c1cnccn1,235/80,,14 d,4 µM
Fc1ccc(-n2c(=S)oc3ccc(Br)cc3c2=S)cc1,6509/96,,21 d,16 µM
N/C(=N\N=C\c1cc(Br)ccc1O)SCc1ccc(C(F)(F)F)cc1,ATCC 12478,broth dilution,21 d,62.5 µM